Pooled drug test results. Numbers come from NIAID ChemDB, via PubChem.

Common to all: host cell toxicity; cell line: PBMC; endpoint: CC50

CCn: concentration that lowers growth or viability of the cells by n%. Blank or dashed fields: not listed here. Lines come from different laboratories, so protocols vary.

structure,method,value
CC(C)OC(=O)[C@H](C)NP(=O)(OC[C@H]1O[C@@H](n2ccc(=O)[nH]c2=O)C(F)(F)C1(F)F)Oc1ccccc1,,>100 µM
CN1CCN(Cc2ccc(-c3cccc(-c4ccc(CN5CCN(C)CC5)cc4)n3)cc2)CC1,,100 µM
c1ccc(-c2nnc3c4ccccc4c(N4CCc5ccccc5C4)nn23)cc1,,>100 µM
Cc1cn([C@H]2O[C@@H](CO)C=C2F)c(=O)[nH]c1=O,,>100 µM
CC(C)[C@@H]1NC(=O)[C@H](C(C)C)N([C@H]2C[C@H](O)[C@@H](CO)O2)C1=O,XTT,>100 µM
CCOC(=O)[C@H](C)NP(=O)(OC[C@@H]1OC[C@H](n2cnc3c(NC4CC4)nc(N)nc32)O1)Oc1ccccc1,MTT,>100 µM
CC(C)Oc1ccccc1NC(=O)Nc1ccc2cnccc2n1,,>100 µg/mL
C[C@H](NC(=O)NCCc1ccc2c(n1)NCCC2)c1ccc2ccccc2c1,,50 µM
Cc1cn([C@@H]2O[C@@H](CO)C=C2F)c(=O)[nH]c1=O,,>100 µM
CCOc1ccccc1CNC(=O)NCCc1ccc2c(n1)NCCC2,,50 µM
Nc1nc2c(ncn2[C@@H]2C=C[C@H](CO)C2)c(=O)[nH]1,,>100 µM
Cc1cn([C@H]2C[C@H](N=[N+]=[N-])[C@@H](CO)O2)c(=O)[nH]c1=O,trypan blue,>100 µM
CN(C)CCSc1nc(-c2cccs2)cc(-c2cccs2)n1,,100 µM
Nc1ccn([C@H]2C=C(F)[C@@H](CO)C2)c(=O)n1,,>100 µM
CC(C)C(Cc1ccccc1)NC(=O)C[C@@H]1O[C@@H]1[C@H](Cc1ccccc1)NC(=O)[C@@H](NC(=O)Cc1ccoc1)C(C)(C)S(C)(=O)=O,,>10 µM
CC[C@H](C)[C@H](NC(=O)[C@@H](C[C@H](O)[C@H](CC1CCCCC1)NC(=O)CC(C)(C)C)C(C)C)C(=O)NCc1ccccn1,,>10 µM
C/C(=C\CP(=O)(OCOC(=O)C(C)(C)C)OCOC(=O)C(C)(C)C)Cn1cnc2c(=O)[nH]c(N)nc21,absorbance,90.7 µM
Cc1nnc2c3ccccc3c(N3CCc4ccc(N)cc4C3)nn12,,4.15 µM
CC(C)C(Cc1ccccc1)NC(=O)C[C@@H]1O[C@@H]1[C@H](Cc1ccccc1)NC(=O)[C@@H](NC(=O)OC1CCCC1)C(C)(C)S(C)(=O)=O,,>10 µM
CC(C)=CCC/C(C)=C/COc1ccc2ccc(=O)oc2c1,,46.8 µM
Nc1ncnc2c1ncn2[C@@H]1CC(CO)=C[C@@H]1O,trypan blue,>100 µM
Nc1nc(=O)n([C@H]2O[C@@H](CO)CC2(F)F)cc1F,,>100 µM
Cc1ccc(S(=O)(=O)NC[C@@H]2O[C@@H]2[C@H](Cc2ccccc2)NC(=O)C(CC(N)=O)NC(=O)c2ccc3ccccc3n2)cc1,,>10 µM
Cc1cn(-c2cccc(CCNC(=O)Nc3cccc(F)c3)n2)cn1,,50 µM
Nc1ncnc2c1ncn2[C@H]1O[C@@H](CO)CC1(F)F,,>100 µM
FC(F)(F)c1ccc2c(c1)CN(c1nn3c(C4CC4)nnc3c3ccccc13)CC2,,5.06 µM
COCCOc1ccccc1NC(=O)NCCc1ccc2c(n1)NCCC2,,50 µM
CN1CCN(CCSc2nccc(-c3ccc(-c4ccnc(SCCN5CCN(C)CC5)n4)s3)n2)CC1,,100 µM
Cc1ccc(S(=O)(=O)N(CC(C)C)C[C@@H]2O[C@@H]2[C@H](Cc2ccccc2)NC(=O)C(CC(N)=O)NC(=O)c2ccc3ccccc3n2)cc1,,>10 µM
Cc1c(-c2ccc(SCCN(C)C)cc2)ncnc1-c1ccc(SCCN(C)C)cc1,,100 µM
CN(C)CCSc1cccc(-c2cc(-c3cccc(SCCN(C)C)c3)ncn2)c1,,10 µM
Nc1nc2c(ncn2[C@H]2CO[C@@H](CO)O2)c(=O)[nH]1,MTT,>100 µM
CN(C)CCNc1nc(-c2ccoc2)cc(-c2cc3ccccc3s2)n1,,10 µM
COc1cc2oc(-c3ccc(O)cc3O)c(CC=C(C)C)c(=O)c2c(O)c1CC=C(C)C,,41.7 µM
CC(C)c1ccc(NC(=O)N(C)CCc2ccc3c(n2)NCCC3)cc1,,50 µM
Nc1ncnc2c1ncn2C1OC(CO)C=C1F,,>100 µM
Cc1cn([C@H]2C=C(F)[C@@H](CO)C2)c(=O)[nH]c1=O,,>100 µM
CC(C)OC(=O)[C@H](C)NP(=O)(OC[C@H]1O[C@@H](n2cnc3c(N)ncnc32)C(F)(F)C1(F)F)Oc1ccccc1,,27 µM
COc1cc2c(cc1OC)CN(c1nn3c(C(F)F)nnc3c3ccccc13)CC2,,3.61 µM
Nc1ccn([C@H]2O[C@@H](CO)CC2(F)F)c(=O)n1,,>100 µM
O=C1CN([C@H]2C[C@H](O)[C@@H](CO)O2)C(=O)CN1,XTT,>100 µM
Nc1ccn([C@H]2C=C(F)[C@@H](CO)O2)c(=O)n1,,>100 µM
CC(C)=CCc1c(O)cc2oc(-c3ccc(O)cc3O)c(CC=C(C)C)c(=O)c2c1O,,19.1 µM
OCCN(CCO)CCOc1nc(-c2cccs2)cc(-c2cc3ccccc3s2)n1,,100 µM
O=c1[nH]cnc2c1ncn2[C@H]1O[C@@H](CO)C=C1F,,>100 µM
COc1cc2oc3c(c(=O)c2c(O)c1/C=C/C(C)C)C(C=C(C)C)Oc1cc(O)ccc1-3,,15.7 µM
CN1CCN(CCSc2nnc(-c3ccc4ccccc4c3)c3ccccc23)CC1,,100 µM
Nc1ncnc2c1ncn2[C@@H]1CC(CO)=C[C@H]1O,trypan blue,>100 µM
C=C(C)[C@@H]1CC[C@]2(CCNCCN3CCN(Cc4ccccc4)CC3)CC[C@]3(C)[C@H](CC[C@@H]4[C@@]5(C)CC[C@H](OC(=O)CC(C)(C)C(=O)O)C(C)(C)[C@@H]5CC[C@]43C)[C@@H]12,MTS,>1 µM
Nc1ncnc2c1ncn2[C@@H]1O[C@@H](CO)C=C1F,,>100 µM
O=C(NCCc1ccc2c(n1)NCCC2)Nc1cc(Cl)ccc1Cl,,28.3 µM
Cc1cn([C@H]2C[C@H](N=[N+]=[N-])[C@@H](COC(=O)CCCCCCC(=O)O)O2)c(=O)[nH]c1=O,XTT,>0.5 µM
CC(C)OC(=O)[C@H](C)NP(=O)(OC[C@H]1O[C@@H](n2ccc(N)nc2=O)C(F)(F)C1(F)F)Oc1ccccc1,,>100 µM
Cc1cn([C@H]2C=C[C@@H](COC(=O)CCCCCCCCCCC(=O)O)O2)c(=O)[nH]c1=O,XTT,>0.5 µM
COc1c2ccoc2c(OCC=C(C)C)c2oc(=O)ccc12,,21.3 µM
CC(C)CC(=O)N[C@H](C(=O)N[C@@H](Cc1ccccc1)[C@H]1O[C@H]1CC(=O)NC(Cc1ccccc1)C(C)C)C(C)(C)S(C)(=O)=O,,>10 µM
CN1CCN(CCSc2nc(-c3cc4ccccc4s3)c3ccccc3n2)CC1,,10 µM
Cc1cn([C@H]2C[C@H](N=[N+]=[N-])[C@@H](CO)O2)c(=O)[nH]c1=O,XTT,>1 µM
Nc1nc2c(ncn2[C@@H]2C[C@H](CO)C(F)(F)C2)c(=O)[nH]1,,>100 µM
O=C(NCCc1ccc2c(n1)NCCC2)Nc1cccnc1,,50 µM
CN1CCN(CCSc2nnc(-c3cc4ccccc4s3)c3ccccc23)CC1,,100 µM
CN(C)CCNc1nc(-c2cccs2)cc(-c2cc3ccccc3s2)n1,,10 µM
CC(C)[C@@H]1NC(=O)[C@H](C(C)C)N([C@H]2C[C@H](N=[N+]=[N-])[C@@H](CO)O2)C1=O,XTT,>100 µM
Cc1cncc2ccc(C(=O)NCc3ccccc3OC(C)C)nc12,,4.3 µg/mL
O=c1[nH]c(=O)n([C@@H]2O[C@@H](CO)CC2(F)F)cc1I,,>100 µM
O=C(NCCc1ccc2c(n1)NCCC2)Nc1ccc(OCCN2CCOCC2)c(F)c1,,50 µM
Cc1cn([C@H]2C=C[C@@H](COC(=O)CCCCCCCCC(=O)O)O2)c(=O)[nH]c1=O,XTT,>0.5 µM
CN(C)CCSc1cccc(-c2cc(-c3cccc(SCCN(C)C)c3)ncn2)c1,,10 µM
O=c1[nH]cnc2c1ncn2C1OC(CO)CC1(F)F,,>100 µM
CC(C)(C)C(=O)SCCOP(=O)(OCCSC(=O)C(C)(C)C)OC[C@H]1CC[C@@H](n2cnc3c(N)ncnc32)O1,,>100 µM
Cc1cn([C@H]2C[C@H](N=[N+]=[N-])[C@@H](COC(=O)CCCCCCCCC(=O)O)O2)c(=O)[nH]c1=O,XTT,>0.5 µM
Cc1cn([C@@H]2CC[C@H](COC(=O)CCCCCCCCCCC(=O)OC[C@H]3O[C@@H](n4cc(C)c(=O)[nH]c4=O)C[C@@H]3N=[N+]=[N-])O2)c(=O)[nH]c1=O,,>1 µM
COc1ccc(CNC(=O)NCCc2ccc3c(n2)NCCC3)cc1,,50 µM
O=c1[nH]cnc2c1ncn2[C@@H]1O[C@@H](CO)C=C1F,,>100 µM
COc1cc(/C=C/C(=O)CC(=O)/C=C/c2ccc(O)c(OC)c2)ccc1O,,10 µM
CCOC(=O)[C@H](C)NP(=O)(OC[C@@H]1OC[C@H](n2cnc3c(N)nc(N)nc32)O1)Oc1ccccc1,MTT,66.5 µM
Cc1cn([C@@H]2CC[C@H](COC(=O)CCCCCCCCCCCCC(=O)OC[C@H]3O[C@@H](n4cc(C)c(=O)[nH]c4=O)C[C@@H]3N=[N+]=[N-])O2)c(=O)[nH]c1=O,,>1 µM
Cc1nnc2c3ccccc3c(N3CCc4ccccc4C3)nn12,,37.1 µM
Cc1cn([C@@H]2O[C@@H](CO)CC2(F)F)c(=O)[nH]c1=O,,>100 µM

The last 5 rows once more:

{"structure": "COc1cc(/C=C/C(=O)CC(=O)/C=C/c2ccc(O)c(OC)c2)ccc1O", "value": "10 µM"}
{"structure": "CCOC(=O)[C@H](C)NP(=O)(OC[C@@H]1OC[C@H](n2cnc3c(N)nc(N)nc32)O1)Oc1ccccc1", "method": "MTT", "value": "66.5 µM"}
{"structure": "Cc1cn([C@@H]2CC[C@H](COC(=O)CCCCCCCCCCCCC(=O)OC[C@H]3O[C@@H](n4cc(C)c(=O)[nH]c4=O)C[C@@H]3N=[N+]=[N-])O2)c(=O)[nH]c1=O", "value": ">1 µM"}
{"structure": "Cc1nnc2c3ccccc3c(N3CCc4ccccc4C3)nn12", "value": "37.1 µM"}
{"structure": "Cc1cn([C@@H]2O[C@@H](CO)CC2(F)F)c(=O)[nH]c1=O", "value": ">100 µM"}